Like-named read-outs stand apart in the source and are kept apart here.

The assay deals with Mtb K204.
[1] abbreviates: anti-TB activity of KAN against Mtb K204 with compound at concentration tested (100-fold IC50 or 100 μM), Example 3.
Where [2] appears, read: KAN MIC for K204 Mtb in the presence of compound at the specified concentration, Example 4.
The mark [3] stands for this setting: activity of KAN against Mtb K204 with compound at concentration tested, Example 1, first of the two experiments printed.
Setting [4] is: activity of KAN against Mtb K204 with compound at concentration tested, Example 1, second of the two experiments printed.

Regarding `Cc1cccc(N(C)S(=O)(=O)c2ccc3[nH]c(=O)c(=O)[nH]c3c2)c1` [Compound 41], under setting [1], the “K204 MICKAN” value lay within 2.5 to 5 µg/mL. In the case of `CCN1CCN(CCNC2=NS(=O)(=O)C(c3ccc(OC)cc3)=C2C)CC1` [Compound 37d], the “K204 MICKAN” value under setting [2] lay within 5 to 10 µg/mL.

`O=c1[nH]c2ccc(S(=O)(=O)Nc3ccc(Br)cc3)cc2[nH]c1=O` [Compound 30]: under setting [1], the “K204 MICKAN” value amounted to 5 µg/mL.

On to `CC(C)c1ccc(NS(=O)(=O)c2ccc3[nH]c(=O)c(=O)[nH]c3c2)cc1` [Compound 34], for which the “K204 MICKAN” value under setting [1] came out at 5 µg/mL. Take `CC1=C(c2ccccc2)S(=O)(=O)N=C1NCCN1CCCCC1` [Compound 33a]: under setting [2], the “K204 MICKAN” value came out at 5 µg/mL. `CN(c1ccc(Cl)cc1)S(=O)(=O)c1ccc2[nH]c(=O)c(=O)[nH]c2c1` [Compound 35]: under setting [1], the “K204 MICKAN” value turned out to be 2.5 µg/mL. Regarding `CCN1CCN(CCCNC2=NS(=O)(=O)C(c3ccc(C(C)C)cc3)=C2C)CC1` [Compound 15f], the “K204 MICKAN” value under setting [2] came to 10 µg/mL. Consider `CN(c1cccc(Br)c1)S(=O)(=O)c1ccc2[nH]c(=O)c(=O)[nH]c2c1` [Compound 38], for which the “K204 MICKAN” value under setting [1] was 2.5 µg/mL.

Take `CCCN1CCN(C2=NS(=O)(=O)C(c3ccc(C)c(C)c3)=C2C)CC1` [Compound 62i]: under setting [2], the “K204 MICKAN” value amounted to 5 µg/mL.

In the case of `CC1=C(c2ccc(Cl)cc2)S(=O)(=O)N=C1NCCCN1CCN(C)CC1` [Compound 14c], under setting [2], the “K204 MICKAN” value is 5 µg/mL.

For `CC1=C(c2ccc(F)cc2)S(=O)(=O)N=C1NCc1ccccn1` [Compound 112b], under setting [2], the “K204 MICKAN” value came to 10 µg/mL.

`CCN1CCN(CCNC2=NS(=O)(=O)C(c3ccc(F)cc3)=C2C)CC1` [Compound 37b]: the “K204 MICKAN” value under setting [2] was in the range of 2.5 to 5 µg/mL.

Consider `COc1cc(OC)cc(N(C)S(=O)(=O)c2ccc3[nH]c(=O)c(=O)[nH]c3c2)c1` [Compound 40], for which the “K204 MICKAN” value under setting [1] was in the range of 5 to 10 µg/mL. For `CCC(=O)CN1C(=O)C2(OCCO2)c2ccccc21` [Compound 2l], the “K204 MICKAN” value reads like this: under setting [3], ≥10, 10 μg/mL; under setting [4], ≥10, 10 μg/mL. For the compound `CC1=C(c2ccc(C)c(C)c2)S(=O)(=O)N=C1NCCCN1CCOCC1` [Compound 13i], the “K204 MICKAN” value under setting [2] amounted to 5 µg/mL. For the compound `COc1ccc(C2=C(C)C(NCCN3CCN(C)CC3)=NS2(=O)=O)cc1` [Compound 36d], the “K204 MICKAN” value under setting [2] lay in the range of 2.5 to 5 µg/mL.

With `COC(=O)c1cc2occc2n1CC(=O)C(C)(C)C` [Compound 1m], the “K204 MICKAN” value by setting is: under setting [3], ≥10, 10 μg/mL; under setting [4], ≥10, 10 μg/mL. For the compound `CC1=C(c2cccc(Cl)c2)S(=O)(=O)N=C1NCCCN1CCOCC1` [Compound 13g], the “K204 MICKAN” value under setting [2] lay within 2.5 to 5 µg/mL. On the same count and under the same terms, with `CC1=C(c2ccc(F)cc2)S(=O)(=O)N=C1NCc1ccccc1` [Compound 89b] the figure was 10 µg/mL; with `CC1=C(c2ccc(C)c(C)c2)S(=O)(=O)N=C1NCCCN1CCN(C2CCCCC2)CC1` [Compound 17i], 5 µg/mL; with `CC1=C(c2ccc(C)cc2)S(=O)(=O)N=C1NCCN1CCOCC1` [Compound 35e], 5 µg/mL. `CC1=C(c2ccc(F)cc2)S(=O)(=O)N=C1N1CCC(N2CCCCC2)CC1` [Compound 46b]: under setting [2], the “K204 MICKAN” value stood at 5 µg/mL. As for `CN(c1ccc(Br)cc1)S(=O)(=O)c1ccc2[nH]c(=O)c(=O)[nH]c2c1` [Compound 29], the “K204 MICKAN” value under setting [1] is 2.5 µg/mL. As to `CC(C)c1cccc(N(C)S(=O)(=O)c2ccc3[nH]c(=O)c(=O)[nH]c3c2)c1` [Compound 43], under setting [1], the “K204 MICKAN” value is 2.5 to 5 µg/mL. As to `CCN1CCN(CCCNC2=NS(=O)(=O)C(c3ccc(C)cc3)=C2C)CC1` [Compound 15e], the “K204 MICKAN” value under setting [2] was found to be 5 µg/mL.

`CCCCc1cccc(N(C)S(=O)(=O)c2ccc3[nH]c(=O)c(=O)[nH]c3c2)c1` [Compound 44]: the “K204 MICKAN” value under setting [1] was 5 to 10 µg/mL.

In the case of `CN(c1cccc(F)c1)S(=O)(=O)c1ccc2[nH]c(=O)c(=O)[nH]c2c1` [Compound 37], the “K204 MICKAN” value under setting [1] was 5 µg/mL. As for `CC1=C(c2ccc(C)c(C)c2)S(=O)(=O)N=C1NCC(=O)NCc1ccc(C)o1` [Compound 116i], the “K204 MICKAN” value under setting [2] was found to be 10 µg/mL.

Values taken from US10253035B2 (priority 2016, dated 2019).
